The text below walks through data of PubChem BioAssay (NCATS).

Only a part is listed here, and it is no random draw. Inconclusive results are not listed. Calls of active or inactive are those of the source. Unless noted, calls follow the shape of the full dose curve.

Test system in the first experiment: not listed separately
As to the kind of experiment: qHTS for Inhibitors of the Functional Ribonucleoprotein Complex (vRNP) of Lassa (LASV) Arenavirus: Viability assay - alamar blue signal for LASV Primary Screen (AID 1347083; calls by dose curve; tested in HEK293 reporter line; also: % is scaled to controls: 0 for no effect and ±100 for the full control effect; nearly all actives have a fitted effect of over 80% in size). The conditions noted are these: cell viability, alamar blue fluorescence (LASV minigenome counter-screen); at 57.5 µM (top of the series) unless noted. In general terms: In qHTS, concentration-response curves come from the screen itself.
As to `C/C1=C2N=C(/C=C3N=C(/C(C)=C4\[N-][C@@](C)([C@@H]5N=C1[C@](C)(CCC(=O)NC[C@@H](C)OP(=O)([O-])O[C@H]1[C@@H](O)[C@@H](n6cnc7cc(C)c(C)cc76)O[C@@H]1CO)[C@H]5CC(N)=O)[C@@](C)(CC(N)=O)[C@@H]4CCC(N)=O)[C@@](C)(CC(N)=O)[C@@H]\3CCC(N)=O)C(C)(C)[C@@H]/2CCC(N)=O.[C-]#N.[Co+3]`, the activity change, negative = reduced viability is inactive: -29.5%.

For `CC1=C2[N-][C@@](C)([C@@H]3N=C(C(C)=C4N=C(C=C5N=C1[C@@](C)(CC(N)=O)[C@H]5CCC(N)=O)C(C)(C)[C@H]4CCC(N)=O)[C@](C)(CCC(=O)NC[C@@H](C)OP(=O)([O-])O[C@H]1[C@@H](O)[C@@H](n4cnc5cc(C)c(C)cc54)O[C@H]1CO)[C@H]3CC(N)=O)[C@@](C)(CC(N)=O)[C@@H]2CCC(N)=O.[C-]#N.[Co+3]`, the activity change, negative = reduced viability was inactive: -26.1%.

Consider `Cc1cccc([N+](=O)[O-])c1[N+](=O)[O-]`, for which the activity change, negative = reduced viability was inactive: -6.38% [at 115 µM].

Consider `CCOP(=O)(CC)Oc1ccc([N+](=O)[O-])cc1` (stereo unspecified), for which the activity change, negative = reduced viability is inactive: -18.9%.

`OCCSCCO`: the activity change, negative = reduced viability is inactive: 1.02%.

Test system in a further experiment: not listed separately
As to the kind of experiment: qHTS for Inhibitors of the Functional Ribonucleoprotein Complex (vRNP) of Lymphocytic Choriomeningitis Arenaviruses (LCMV): Viability assay - alamar blue signal for LCMV Primary Screen (AID 1347085; calls by dose curve; tested in HEK293 reporter line; also: % is scaled to controls: 0 for no effect and ±100 for the full control effect; nearly all actives have a fitted effect of over 80% in size). To be noted: alamar blue viability counter-screen, LCMV vRNP screen cells; at 57.5 µM (top of the series) unless noted.
Take `C/C1=C2N=C(/C=C3N=C(/C(C)=C4\[N-][C@@](C)([C@@H]5N=C1[C@](C)(CCC(=O)NC[C@@H](C)OP(=O)([O-])O[C@H]1[C@@H](O)[C@@H](n6cnc7cc(C)c(C)cc76)O[C@@H]1CO)[C@H]5CC(N)=O)[C@@](C)(CC(N)=O)[C@@H]4CCC(N)=O)[C@@](C)(CC(N)=O)[C@@H]\3CCC(N)=O)C(C)(C)[C@@H]/2CCC(N)=O.[C-]#N.[Co+3]`: the activity change, negative = lower viability is inactive: -30.3%.

With `Cc1cccc([N+](=O)[O-])c1[N+](=O)[O-]`, the activity change, negative = lower viability is inactive: 12.8% [at 115 µM].

As to `OCCSCCO`, the activity change, negative = lower viability was inactive: -3.6%.

For a further experiment, the target named is Nucleoprotein (Lymphocytic choriomeningitis virus (strain Armstrong)) (UniProt P09992). As to the kind of experiment: qHTS for Inhibitors of the Functional Ribonucleoprotein Complex (vRNP) of Lymphocytic Choriomeningitis Arenaviruses (LCMV): LCMV Primary Screen - GLuc reporter signal (AID 1347086). Also: % is scaled to controls: 0 for no effect and ±100 for the full control effect; nearly all actives have a fitted effect of over 70% in size. The conditions noted are these: LCMV minigenome vRNP cell assay, Gaussia luciferase reporter; at 57.5 µM (top of the series) unless noted.
Take `C/C1=C2N=C(/C=C3N=C(/C(C)=C4\[N-][C@@](C)([C@@H]5N=C1[C@](C)(CCC(=O)NC[C@@H](C)OP(=O)([O-])O[C@H]1[C@@H](O)[C@@H](n6cnc7cc(C)c(C)cc76)O[C@@H]1CO)[C@H]5CC(N)=O)[C@@](C)(CC(N)=O)[C@@H]4CCC(N)=O)[C@@](C)(CC(N)=O)[C@@H]\3CCC(N)=O)C(C)(C)[C@@H]/2CCC(N)=O.[C-]#N.[Co+3]`: the activity change, negative = inhibition was inactive: -3.53%.

On to `CC1=C2[N-][C@@](C)([C@@H]3N=C(C(C)=C4N=C(C=C5N=C1[C@@](C)(CC(N)=O)[C@H]5CCC(N)=O)C(C)(C)[C@H]4CCC(N)=O)[C@](C)(CCC(=O)NC[C@@H](C)OP(=O)([O-])O[C@H]1[C@@H](O)[C@@H](n4cnc5cc(C)c(C)cc54)O[C@H]1CO)[C@H]3CC(N)=O)[C@@](C)(CC(N)=O)[C@@H]2CCC(N)=O.[C-]#N.[Co+3]`, for which the activity change, negative = inhibition is inactive: -14.8%.

`Cc1cccc([N+](=O)[O-])c1[N+](=O)[O-]`: the activity change, negative = inhibition was inactive: 11.5% [at 115 µM].

For `OCCSCCO`, the activity change, negative = inhibition is inactive: -2.09%.

The subject of another experiment is Zika virus NS2B-NS3 protease. As to the kind of experiment: Primary screen GU AMC qHTS for Zika virus inhibitors (AID 1347154; active = well fitted inhibition curve with a large enough effect;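 also: 0% = no-inhibitor control and -100% = no-enzyme control; nearly all actives have a fitted effect of over 70% in size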). The conditions noted are these: Zika NS2B-NS3 unlinked protease, AMC fluorogenic substrate; at 54.1 µM (top of the series) unless noted. The procedure, abridged: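 Unlinked Zika NS2B hydrophilic domain/NS3 protease domain noncovalent complex (25 nM final) in 10 mM Tris-HCl pH 8.0, 0.01% Tween 20, with AMC peptide substrate. Fluorescence (ex 340, em 450 nm) change over 15 min, room temperature; percent inhibition fitted to 4-parameter Hill equation.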
`C/C1=C2N=C(/C=C3N=C(/C(C)=C4\[N-][C@@](C)([C@@H]5N=C1[C@](C)(CCC(=O)NC[C@@H](C)OP(=O)([O-])O[C@H]1[C@@H](O)[C@@H](n6cnc7cc(C)c(C)cc76)O[C@@H]1CO)[C@H]5CC(N)=O)[C@@](C)(CC(N)=O)[C@@H]4CCC(N)=O)[C@@](C)(CC(N)=O)[C@@H]\3CCC(N)=O)C(C)(C)[C@@H]/2CCC(N)=O.[C-]#N.[Co+3]`: the activity change, negative = inhibition is inactive: -10.9%.

As to `CC1=C2[N-][C@@](C)([C@@H]3N=C(C(C)=C4N=C(C=C5N=C1[C@@](C)(CC(N)=O)[C@H]5CCC(N)=O)C(C)(C)[C@H]4CCC(N)=O)[C@](C)(CCC(=O)NC[C@@H](C)OP(=O)([O-])O[C@H]1[C@@H](O)[C@@H](n4cnc5cc(C)c(C)cc54)O[C@H]1CO)[C@H]3CC(N)=O)[C@@](C)(CC(N)=O)[C@@H]2CCC(N)=O.[C-]#N.[Co+3]`, the activity change, negative = inhibition was inactive: 0.793% [at 25.8 µM].

Consider `CCOP(=O)(CC)Oc1ccc([N+](=O)[O-])cc1` (stereo unspecified), for which the activity change, negative = inhibition was inactive: 2.12%.

With `O=[N+]([O-])c1cccc([N+](=O)[O-])c1`, the activity change, negative = inhibition is inactive: -16.6% [at 104 µM].

Consider `OCCSCCO`, for which the activity change, negative = inhibition is inactive: 1.36%.

Test system in another experiment: not listed separately
As to the kind of experiment: Primary qHTS for inhibitors of SARS-S pseudo-typed particle cell entry (AID 1479145). Also: % is scaled to controls: 0 for no effect and ±100 for the full control effect; nearly all actives have a fitted effect of over 45% in size. The conditions noted are these: SARS-S pseudotyped particle cell entry, luciferase reporter; at 57.1 µM (top of the series).
Take `C/C1=C2N=C(/C=C3N=C(/C(C)=C4\[N-][C@@](C)([C@@H]5N=C1[C@](C)(CCC(=O)NC[C@@H](C)OP(=O)([O-])O[C@H]1[C@@H](O)[C@@H](n6cnc7cc(C)c(C)cc76)O[C@@H]1CO)[C@H]5CC(N)=O)[C@@](C)(CC(N)=O)[C@@H]4CCC(N)=O)[C@@](C)(CC(N)=O)[C@@H]\3CCC(N)=O)C(C)(C)[C@@H]/2CCC(N)=O.[C-]#N.[Co+3]`: the activity change, negative = inhibition is inactive: -46.7%.

As for `CC(C)OP(=O)(F)OC(C)C`, the activity change, negative = inhibition was inactive: -25.4%.

With `CCOP(=O)(CC)Oc1ccc([N+](=O)[O-])cc1` (stereo unspecified), the activity change, negative = inhibition was inactive: -13.4%.

Turning to `O=[N+]([O-])c1cccc([N+](=O)[O-])c1`, the activity change, negative = inhibition was inactive: -9.48%.
